This is an account of results in article PMC11925246 (Journal of Bacteriology, 2025).

For the data set, the system named is R. pseudosolanacearum resting cells. The format is cell-based. The note with it: malic acid 0.5 mM or sucrose 0.01%; for Cell number after incubation: 20 h, room temperature, start 1.4 × 10^8 CFU/mL (Fig. S2); for Effect on viability of resting cells: at least 20 h of incubation.

On to `O=C(O)CC(O)C(=O)O` (stereo not shown) [Malic acid, malic acid], for which the “Cell number after incubation” value was 6.8 × 10^8 CFU/mL and the “Effect on viability of resting cells” value was “did not affect the viability”.
Take `OC[C@H]1O[C@@](CO)(O[C@H]2O[C@H](CO)[C@@H](O)[C@H](O)[C@H]2O)[C@@H](O)[C@@H]1O` [sucrose]: the “Cell number after incubation” value was 8.2 × 10^8 CFU/mL and the “Effect on viability of resting cells” value was “did not affect the viability”.
